Measured values as given in paper PMC6185908, “Epistasis studies reveal redundancy among calcium-dependent protein kinases in motility and invasion of malaria parasites” (2018).

The chains behind the UniProt entries cited, without tags or fusion partners. Where a name states a change or a piece, a line headed by the entry shows the natural chain unless it says otherwise. Residues count along the entry.
UniProt Q8I719: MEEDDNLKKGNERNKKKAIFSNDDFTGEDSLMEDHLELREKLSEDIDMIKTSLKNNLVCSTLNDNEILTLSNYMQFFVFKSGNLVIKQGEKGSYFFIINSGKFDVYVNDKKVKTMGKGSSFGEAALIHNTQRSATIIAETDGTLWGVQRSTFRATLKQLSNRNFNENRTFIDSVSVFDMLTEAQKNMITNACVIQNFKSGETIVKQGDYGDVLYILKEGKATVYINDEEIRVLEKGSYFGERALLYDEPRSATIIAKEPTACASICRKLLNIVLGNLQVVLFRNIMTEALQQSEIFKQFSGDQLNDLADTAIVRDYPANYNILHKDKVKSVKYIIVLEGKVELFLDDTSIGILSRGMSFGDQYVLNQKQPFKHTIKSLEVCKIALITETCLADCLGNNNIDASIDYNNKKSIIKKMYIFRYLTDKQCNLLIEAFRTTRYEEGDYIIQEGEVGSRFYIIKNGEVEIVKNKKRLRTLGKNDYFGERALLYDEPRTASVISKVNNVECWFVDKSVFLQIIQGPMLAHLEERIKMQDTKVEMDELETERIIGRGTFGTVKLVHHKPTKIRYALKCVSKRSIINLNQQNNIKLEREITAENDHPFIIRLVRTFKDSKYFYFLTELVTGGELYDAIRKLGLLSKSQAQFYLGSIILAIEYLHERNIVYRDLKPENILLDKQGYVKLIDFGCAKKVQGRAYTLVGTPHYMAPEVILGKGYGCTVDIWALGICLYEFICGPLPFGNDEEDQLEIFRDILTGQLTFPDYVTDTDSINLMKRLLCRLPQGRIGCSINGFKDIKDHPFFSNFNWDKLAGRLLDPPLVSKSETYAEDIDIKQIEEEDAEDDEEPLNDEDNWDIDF
UniProt P62345, 2-528 limits assumed: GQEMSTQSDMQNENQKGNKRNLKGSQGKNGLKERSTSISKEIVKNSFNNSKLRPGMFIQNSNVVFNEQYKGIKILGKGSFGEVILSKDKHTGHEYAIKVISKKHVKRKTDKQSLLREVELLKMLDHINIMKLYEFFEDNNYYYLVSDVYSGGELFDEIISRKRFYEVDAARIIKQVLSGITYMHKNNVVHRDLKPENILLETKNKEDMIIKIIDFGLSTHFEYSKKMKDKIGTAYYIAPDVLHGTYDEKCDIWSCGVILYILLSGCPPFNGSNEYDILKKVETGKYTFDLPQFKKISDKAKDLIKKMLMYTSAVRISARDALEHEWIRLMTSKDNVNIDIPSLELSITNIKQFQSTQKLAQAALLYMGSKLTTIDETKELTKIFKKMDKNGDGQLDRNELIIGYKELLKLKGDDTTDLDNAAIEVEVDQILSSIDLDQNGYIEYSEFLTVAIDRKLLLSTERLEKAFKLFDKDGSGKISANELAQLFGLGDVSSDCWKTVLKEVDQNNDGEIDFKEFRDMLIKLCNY

Key:
[1] = target: PKG (PfPKG, cGMP-dependent protein kinase) (Plasmodium falciparum, UniProt Q8I719); assay: schizont rupture in 3D7 versus C2-resistant PKG T618Q gatekeeper line
[2] = target: CDPK4 (PbCDPK4, calcium-dependent protein kinase 4) (Plasmodium berghei, UniProt P62345); assay: ring formation in C2 after complementation with CDPK4 versus S147M gatekeeper mutant
[3] = target: PfPKG (cGMP-dependent protein kinase) (Plasmodium falciparum, UniProt Q8I719); assay: ATP Km determination with recombinant kinase

SMILES	pEC50 [1]	ring formation in C2 after complementation with CDPK4 versus S147M gatekeeper mu [2]	Km [3] [µM]
CN(C)Cc1ccn2c(-c3ccnc(N)n3)c(-c3ccc(F)cc3)nc2c1	6.10	Complementation with PbCDPK4-2xmyc lowers ring formation in the presence of C2, while complementation with the PbCDPK4^S147M-2xmyc allele does not	
Nc1ncnc2c1ncn2[C@@H]1O[C@H](COP(=O)(O)OP(=O)(O)OP(=O)(O)O)[C@@H](O)[C@H]1O			19.6

pEC50: −log10 of the molar value.
